Assay [1] concerns Candida albicans YEM15 (over-expressing the CDR1 and CDR2 pumps). Nature of the assay: Checkerboard / broth microdilution assay, potentiation of fluconazole vs. C. albicans. To be noted: for MIC: Candida albicans, 48 h; for MPC8 = concentration of efflux pump inhibitor necessary to reduce the fluconazole MIC 8-fold: in combination with fluconazole, strain YEM15.
Assay [2] relates to C. glabrata YEM19 (over-expressing the CgCDR1 and CgCDR2 pumps). Briefly: Checkerboard / broth microdilution assay, potentiation of fluconazole vs. C. glabrata. To be noted: for MIC: Nakaseomyces glabratus, 48 h; for MPC8: in combination with fluconazole, strain YEM19. Background: In broth dilution the organism is exposed to a series of concentrations in liquid medium.

SMILES strings stand for the structures.

As usually defined, the MIC is the lowest concentration that inhibits growth of the organism.

As for `CCOC(=O)N1CCN(n2c(C(C)N(C(=O)Nc3ccc(F)cc3)c3ccc(OC)cc3OC)nc3ccccc3c2=O)CC1` (centres unmarked) [Compound 47], in assay [1], the MIC was over 32 µg/mL and the “MPC8 = concentration of efflux pump inhibitor necessary to reduce the fluconazole MIC 8-fold” value is 0.25 µg/mL. For the same molecule, in assay [2], the MIC was over 32 µg/mL and the MPC8 is 0.5 µg/mL.

Consider `COc1ccc(N(C(=O)Nc2ccc(F)cc2)C(C)c2nc3ccccc3c(=O)n2N2CCN(CC(=O)NCCO)CC2)c(OC)c1` (centres unmarked) [Compound 48], for which, in assay [1], the MIC was over 32 µg/mL and the “MPC8 = concentration of efflux pump inhibitor necessary to reduce the fluconazole MIC 8-fold” value is 16 µg/mL. In assay [2], the MIC was over 32 µg/mL and the MPC8 came out at 2 µg/mL.

As for `CCNC(=O)N1CCN(n2c(C(C)N(C(=O)Nc3ccc(F)cc3)c3ccc(OC)cc3OC)nc3ccccc3c2=O)CC1` (centres unmarked) [Compound 49], in assay [1], the MIC was over 32 µg/mL and the “MPC8 = concentration of efflux pump inhibitor necessary to reduce the fluconazole MIC 8-fold” value came out at 1 µg/mL. Also, in assay [2], the MIC is over 32 µg/mL and the MPC8 was found to be 1 µg/mL.

On to `COc1ccc(N(C(=O)Nc2ccc(F)cc2)C(C)c2nc3ccccc3c(=O)n2N2CCN(C(=O)C[n+]3ccccc3)CC2)c(OC)c1.[Cl-]` (centres unmarked) [Compound 50], for which, in assay [1], the MIC is over 32 µg/mL and the “MPC8 = concentration of efflux pump inhibitor necessary to reduce the fluconazole MIC 8-fold” value was 32 µg/mL. Further, in assay [2], the minimum inhibitory concentration (MIC) was over 32 µg/mL and the MPC8 was determined as 4 µg/mL.

Consider `CCOC(=O)CCCN1CCN(n2c(C(C)N(C(=O)Nc3ccc(F)cc3)c3ccc(OC)cc3OC)nc3ccccc3c2=O)CC1` (centres unmarked) [Compound 51], for which, in assay [1], the MIC was over 32 µg/mL and the “MPC8 = concentration of efflux pump inhibitor necessary to reduce the fluconazole MIC 8-fold” value was 1 µg/mL. Also, in assay [2], the MIC is over 32 µg/mL and the MPC8 was 0.25 µg/mL.

For the molecule `COc1ccc(N(C(=O)Nc2ccc(F)cc2)C(C)c2nc3ccccc3c(=O)n2N2CCN(C(=O)[C@@H]3CCCN3C(=O)OC(C)(C)C)CC2)c(OC)c1` (some centres unmarked) [Compound 53], in assay [1], the MIC is over 32 µg/mL and the “MPC8 = concentration of efflux pump inhibitor necessary to reduce the fluconazole MIC 8-fold” value stood at 4 µg/mL. For the same molecule, in assay [2], the MIC was over 32 µg/mL and the MPC8 came to 1 µg/mL.

With `COc1ccc(N(C(=O)Nc2ccc(F)cc2)C(C)c2nc3ccccc3c(=O)n2N2CCN(C(=O)CNC(=O)OC(C)(C)C)CC2)c(OC)c1` (centres unmarked) [Compound 55], in assay [1], the MIC is over 32 µg/mL and the “MPC8 = concentration of efflux pump inhibitor necessary to reduce the fluconazole MIC 8-fold” value was 4 µg/mL. In assay [2], the MIC was over 32 µg/mL and the MPC8 was 1 µg/mL.

As to `COc1ccc(N(C(=O)Nc2ccc(F)cc2)C(C)c2nc3ccccc3c(=O)n2N2CCN(C(=O)OCCn3ccc(=O)cc3)CC2)c(OC)c1` (centres unmarked) [Compound 56], in assay [1], the MIC is over 32 µg/mL and the “MPC8 = concentration of efflux pump inhibitor necessary to reduce the fluconazole MIC 8-fold” value was 16 µg/mL. In assay [2], the MIC was over 32 µg/mL and the MPC8 is 8 µg/mL.

For `COc1ccc(N(C(=O)Nc2ccc(F)cc2)C(C)c2nc3ccccc3c(=O)n2N2CCN(C(=O)N3CCOCC3)CC2)c(OC)c1` (centres unmarked) [Compound 57], in assay [1], the MIC is over 32 µg/mL and the “MPC8 = concentration of efflux pump inhibitor necessary to reduce the fluconazole MIC 8-fold” value is 1 µg/mL. Besides, in assay [2], the MIC is over 32 µg/mL and the MPC8 turned out to be 1 µg/mL.

For the molecule `COc1ccc(N(C(=O)Nc2ccc(Cl)nn2)C(C)c2nc3ccccc3c(=O)n2N2CCN(C)CC2)c(OC)c1` (centres unmarked) [Compound 58], in assay [1], the MIC was over 32 µg/mL and the “MPC8 = concentration of efflux pump inhibitor necessary to reduce the fluconazole MIC 8-fold” value amounted to 16 µg/mL. Moreover, in assay [2], the MIC is over 32 µg/mL and the MPC8 is 8 µg/mL.

`CC(c1nc2ccccc2c(=O)n1N1CCN(C)CC1)N(C(=O)Nc1ccc(F)cc1)c1ccc(F)cc1F` (centres unmarked) [Compound 62]: in assay [1], the MIC was over 32 µg/mL and the “MPC8 = concentration of efflux pump inhibitor necessary to reduce the fluconazole MIC 8-fold” value turned out to be 8 µg/mL. In assay [2], the MIC is over 32 µg/mL and the MPC8 was determined as 32 µg/mL.

Consider `COc1ccc(N(C(=O)Nc2ccc(F)cc2)C(C)c2nc3cccc(F)c3c(=O)n2N2CCN(C)CC2)cc1OC` (centres unmarked) [Compound 63], for which, in assay [1], the MIC is over 32 µg/mL and the “MPC8 = concentration of efflux pump inhibitor necessary to reduce the fluconazole MIC 8-fold” value amounted to 8 µg/mL. Further, in assay [2], the MIC is over 32 µg/mL and the MPC8 was 8 µg/mL.

In the case of `COc1ccc(N(C(=O)Nc2ccc(F)cc2)C(C)c2nc3cc(F)c(F)cc3c(=O)n2N2CCN(C)CC2)c(OC)c1` (centres unmarked) [Compound 64], in assay [1], the MIC was over 32 µg/mL and the “MPC8 = concentration of efflux pump inhibitor necessary to reduce the fluconazole MIC 8-fold” value stood at 0.125 µg/mL. For the same molecule, in assay [2], the MIC is over 32 µg/mL and the MPC8 came out at 0.5 µg/mL.

For `COc1ccc(N(C(=O)Nc2ccc(Cl)cc2)C(C)c2nc3cc(F)c(F)cc3c(=O)n2N2CCN(C)CC2)c(OC)c1` (centres unmarked) [Compound 65], in assay [1], the MIC is 32 µg/mL and the “MPC8 = concentration of efflux pump inhibitor necessary to reduce the fluconazole MIC 8-fold” value stood at 0.0625 µg/mL. In addition, in assay [2], the MIC is over 32 µg/mL and the MPC8 turned out to be 0.25 µg/mL.

On to `COc1ccc(N(C(=O)Nc2ccc(F)cc2)C(C)c2nc3ccc(Cl)cc3c(=O)n2N2CCN(C)CC2)c(OC)c1` (centres unmarked) [Compound 66], for which, in assay [1], the MIC is over 32 µg/mL and the “MPC8 = concentration of efflux pump inhibitor necessary to reduce the fluconazole MIC 8-fold” value amounted to 0.25 µg/mL. Besides, in assay [2], the MIC was over 32 µg/mL and the MPC8 was found to be 2 µg/mL.

For `COc1ccc(N(C(=O)Nc2ccc(F)cc2)C(C)c2nc3ccc(F)cc3c(=O)n2N2CCN(C)CC2)c(OC)c1` (centres unmarked) [Compound 67], in assay [1], the MIC was over 32 µg/mL and the “MPC8 = concentration of efflux pump inhibitor necessary to reduce the fluconazole MIC 8-fold” value amounted to 1 µg/mL. Besides, in assay [2], the MIC was over 32 µg/mL and the MPC8 is 2 µg/mL.

Consider `CC(c1nc2ccc(F)cc2c(=O)n1N1CCN(C)CC1)N(C(=O)Nc1ccc(F)cc1)c1ccc(F)cc1F` (centres unmarked) [Compound 68], for which, in assay [1], the MIC is over 32 µg/mL and the “MPC8 = concentration of efflux pump inhibitor necessary to reduce the fluconazole MIC 8-fold” value was 2 µg/mL. For the same molecule, in assay [2], the MIC is over 32 µg/mL and the MPC8 was found to be 16 µg/mL.

Consider `COc1ccc(N(C(=O)Nc2ccc(Cl)cc2)C(C)c2nc3ccc(C)cc3c(=O)n2N2CCN(C)CC2)c(OC)c1` (centres unmarked) [Compound 69], for which, in assay [1], the MIC was over 32 µg/mL and the “MPC8 = concentration of efflux pump inhibitor necessary to reduce the fluconazole MIC 8-fold” value was 0.125 µg/mL. Further, in assay [2], the MIC is over 32 µg/mL and the MPC8 is 2 µg/mL.

With `COc1ccc(N(C(=O)Nc2ccc(F)cc2)C(C)c2nc3ccc(C)cc3c(=O)n2N2CCN(C)CC2)c(OC)c1` (centres unmarked) [Compound 70], in assay [1], the MIC was over 32 µg/mL and the “MPC8 = concentration of efflux pump inhibitor necessary to reduce the fluconazole MIC 8-fold” value came to 0.5 µg/mL. In assay [2], the MIC was over 32 µg/mL and the MPC8 is 4 µg/mL.

Turning to `COc1ccc(N(C(=O)Nc2ccc(C(F)(F)F)cc2)C(C)c2nc3ccc(C)cc3c(=O)n2N2CCN(C)CC2)c(OC)c1` (centres unmarked) [Compound 71], in assay [1], the MIC was found to be 16 µg/mL and the “MPC8 = concentration of efflux pump inhibitor necessary to reduce the fluconazole MIC 8-fold” value was found to be 2 µg/mL. Also, in assay [2], the MIC is over 32 µg/mL and the MPC8 stood at 4 µg/mL.

`CCC(=O)Oc1ccc2nc(C(C)N(C(=O)Nc3ccc(F)cc3)c3ccc(OC)cc3OC)n(N3CCN(C)CC3)c(=O)c2c1` (centres unmarked) [Compound 72]: in assay [1], the MIC was over 32 µg/mL and the “MPC8 = concentration of efflux pump inhibitor necessary to reduce the fluconazole MIC 8-fold” value came to 4 µg/mL. Moreover, in assay [2], the MIC was over 32 µg/mL and the MPC8 came out at 4 µg/mL.

`COc1ccc(N(C(=O)Nc2ccc(F)cc2)C(C)c2nc3ccc(OC)cc3c(=O)n2N2CCN(C)CC2)c(OC)c1` (centres unmarked) [Compound 73]: in assay [1], the MIC was over 32 µg/mL and the “MPC8 = concentration of efflux pump inhibitor necessary to reduce the fluconazole MIC 8-fold” value amounted to 0.5 µg/mL. In addition, in assay [2], the MIC was over 32 µg/mL and the MPC8 came out at 2 µg/mL.

For `COc1ccc(N(C(=O)Nc2ccc(Cl)cc2)C(C)c2nc3ccc(OC)cc3c(=O)n2N2CCN(C)CC2)c(OC)c1` (centres unmarked) [Compound 74], in assay [1], the MIC was over 32 µg/mL and the “MPC8 = concentration of efflux pump inhibitor necessary to reduce the fluconazole MIC 8-fold” value amounted to 0.25 µg/mL. Further, in assay [2], the minimum inhibitory concentration (MIC) is over 32 µg/mL and the MPC8 was found to be 1 µg/mL.

For the molecule `COc1ccc(N(C(=O)Nc2ccc(C(F)(F)F)cc2)C(C)c2nc3cc(Cl)ccc3c(=O)n2N2CCN(C)CC2)c(OC)c1` (centres unmarked) [Compound 75], in assay [1], the MIC is 16 µg/mL and the “MPC8 = concentration of efflux pump inhibitor necessary to reduce the fluconazole MIC 8-fold” value was found to be 0.5 µg/mL. Moreover, in assay [2], the MIC is 16 µg/mL and the MPC8 was determined as 0.5 µg/mL.

Take `COc1ccc(N(C(=O)Nc2ccc(Cl)cc2)C(C)c2nc3cc(Cl)ccc3c(=O)n2N2CCN(C)CC2)c(OC)c1` (centres unmarked) [Compound 76]: in assay [1], the MIC is over 32 µg/mL and the “MPC8 = concentration of efflux pump inhibitor necessary to reduce the fluconazole MIC 8-fold” value worked out at 0.25 µg/mL. Further, in assay [2], the MIC was over 32 µg/mL and the MPC8 was 0.5 µg/mL.

Take `COc1ccc(N(C(=O)Nc2ccc(F)cc2)C(C)c2nc3cc(Cl)ccc3c(=O)n2N2CCN(C)CC2)c(OC)c1` (centres unmarked) [Compound 77]: in assay [1], the MIC was over 32 µg/mL and the “MPC8 = concentration of efflux pump inhibitor necessary to reduce the fluconazole MIC 8-fold” value stood at 0.125 µg/mL. Also, in assay [2], the MIC was over 32 µg/mL and the MPC8 stood at 0.5 µg/mL.

As for `COc1ccc(N(C(=O)Nc2ccc(C)cc2)C(C)c2nc3cc(Cl)ccc3c(=O)n2N2CCN(C)CC2)c(OC)c1` (centres unmarked) [Compound 78], in assay [1], the MIC came to 32 µg/mL and the “MPC8 = concentration of efflux pump inhibitor necessary to reduce the fluconazole MIC 8-fold” value was determined as 0.25 µg/mL. For the same molecule, in assay [2], the MIC turned out to be 32 µg/mL and the MPC8 was 0.25 µg/mL.

For the molecule `COc1ccc(N(C(=O)Nc2ccc(F)cc2)C(C)c2nc3cc(C#N)ccc3c(=O)n2N2CCN(C)CC2)c(OC)c1` (centres unmarked) [Compound 79], in assay [1], the MIC is over 32 µg/mL and the “MPC8 = concentration of efflux pump inhibitor necessary to reduce the fluconazole MIC 8-fold” value was found to be 0.5 µg/mL. Further, in assay [2], the MIC was over 32 µg/mL and the MPC8 came to 2 µg/mL.

As for `COC(=O)c1ccc2c(=O)n(N3CCN(C)CC3)c(C(C)N(C(=O)Nc3ccc(F)cc3)c3ccc(OC)cc3OC)nc2c1` (centres unmarked) [Compound 80], in assay [1], the MIC was over 32 µg/mL and the “MPC8 = concentration of efflux pump inhibitor necessary to reduce the fluconazole MIC 8-fold” value was 32 µg/mL. Further, in assay [2], the MIC was over 32 µg/mL and the MPC8 is 2 µg/mL.

The values are drawn from US20030220338A1, “Fungal efflux pump inhibitors” (priority 2001, published 2003).
